# Measurements reported in PubChem BioAssay AID624099 (ICCB-Longwood, 2012)
# Purpose: 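Host factors E2 relies on to silence an HPV18 LCR reporter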 (primary screen)
# Cell system: human C33A cervical carcinoma cells (HPV-negative) stably expressing BPV1 E2 and an HPV18 LCR luciferase reporter
# Knock-down reagent: siRNA pool against human genes, 40 nM
# Duration: 72 h
# Detection: 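HPV18 LCR reporter light per well, converted to plate-wise z-scores that exclude control wells, and averaged over triplicate plates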
# Direction: mean z-score and z-score: higher = stronger reporter signal, weaker E2 silencing
# Call rule: 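Hit if mean z-score reaches 2 and two or more of three replicate z-scores also reach 2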
# Here is a random part of about 21,000 deposited reagents. Of all reagents, 497 (2.4%) were called active. 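Higher z means weaker E2 silencing; only reporter increases were scored, and knock-downs that hurt cell survival may mask genuine repressor factors.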 Reagents against one gene are numbered here. No sequences are given here.
mean z-score,"z-score, replicate A","z-score, replicate B","z-score, replicate C",Call,Gene,pool no.
0.43,0.51,0.54,0.22,inactive,MRPS6 (GeneID 64968),1
1.12,1,1.19,1.18,inactive,CLEC18A (GeneID 348174),1
0.86,1.01,0.9,0.67,inactive,MPI (GeneID 4351),1
0.03,0.03,0.02,0.03,inactive,SLC66A1 (GeneID 54896),1
-0.58,-0.63,-0.94,-0.19,inactive,EFNA4 (GeneID 1945),1
-0.01,0.34,0.18,-0.54,inactive,LOC202546 (retired record) (GeneID 202546),1
-1.14,-0.72,-1.28,-1.42,inactive,NXT2 (GeneID 55916),1
-0.2,-0.39,-0.07,-0.14,inactive,BCAS2 (GeneID 10286),1
-1.09,-1.03,-0.96,-1.27,inactive,PEPD (GeneID 5184),1
1.23,1.04,1.15,1.5,inactive,BAX (GeneID 581),1
-1.15,-1.32,-1.17,-0.96,inactive,HPGDS (GeneID 27306),1
-0.22,-0.13,-0.6,0.07,inactive,HNRNPL (GeneID 3191),1
0.46,0.54,0.34,0.5,inactive,TMEM128 (GeneID 85013),1
2.16,2.42,1.78,2.27,active,PRKY (GeneID 5616),1
0.8,0.65,0.91,0.83,inactive,MIR22HG (GeneID 84981),1
0.54,0.41,0.54,0.66,inactive,ATP1A4 (GeneID 480),1
-0.61,-0.63,-0.78,-0.41,inactive,RIMBP2 (GeneID 23504),1
1.52,1.68,1.48,1.41,inactive,SULT1A3 (GeneID 6818),1
-0.51,-1.15,0.03,-0.39,inactive,SPANXA2 (GeneID 728712),1
1.14,1.46,1.03,0.92,inactive,ANKRD18A (GeneID 253650),1
0.92,0.49,0.87,1.4,inactive,CBFA2T3 (GeneID 863),1
1.07,0.75,1.4,1.06,inactive,GTF3C6 (GeneID 112495),1
-0.51,-0.43,-0.41,-0.69,inactive,POLR2K (GeneID 5440),1
-1.22,-1.61,-0.97,-1.08,inactive,CPA5 (GeneID 93979),1
0.58,1.01,0.61,0.13,inactive,INTU (GeneID 27152),1
-0.08,-0.11,-0.14,0,inactive,SPINK2 (GeneID 6691),1
-0.64,-0.89,-0.53,-0.48,inactive,MRPS30 (GeneID 10884),1
-1.69,-1.5,-1.72,-1.84,inactive,PTGR2 (GeneID 145482),1
-0.59,-0.85,-0.46,-0.47,inactive,SPIN4 (GeneID 139886),1
0.22,-0.06,0.68,0.04,inactive,LOC339997 (retired record) (GeneID 339997),1
-0.47,0.19,-1.07,-0.54,inactive,NUDT16L2P (GeneID 152195),1
0.58,0.21,0.73,0.81,inactive,DEFB103B (GeneID 55894),1
-0.71,-0.09,-1.08,-0.96,inactive,EPHA4 (GeneID 2043),1
-0.12,0.04,0.06,-0.47,inactive,ATP5MGL (GeneID 267020),1
-1.38,-1.43,-1.56,-1.15,inactive,DCAF7 (GeneID 10238),1
0.64,1.26,0.55,0.1,inactive,RPP25 (GeneID 54913),1

Active calls, among the entries above:
mean z-score,"z-score, replicate A","z-score, replicate B","z-score, replicate C",Call,Gene,pool no.
2.16,2.42,1.78,2.27,active,PRKY (GeneID 5616),1

The listing continues:
mean z-score,"z-score, replicate A","z-score, replicate B","z-score, replicate C",Call,Gene,pool no.
0.08,0.01,0.06,0.18,inactive,DNAAF6 (GeneID 139212),1
1.06,0.73,1.4,1.06,inactive,LYRM9 (GeneID 201229),1
0.62,0.6,1.07,0.18,inactive,C2orf80 (GeneID 389073),1
-0.6,-0.68,-0.63,-0.49,inactive,FGL1 (GeneID 2267),1
0.63,0.56,0.67,0.67,inactive,EZH1 (GeneID 2145),1
0.22,0.42,-0.29,0.53,inactive,OTUD1 (GeneID 220213),1
-0.65,-0.48,-0.41,-1.06,inactive,LOC387710 (retired record) (GeneID 387710),1
0.19,0.38,0.1,0.09,inactive,HSPB2 (GeneID 3316),1
-0.82,-1.25,-0.55,-0.66,inactive,GRHPR (GeneID 9380),1
-0.98,-1.09,-0.97,-0.89,inactive,POU4F1 (GeneID 5457),1
-1.02,-1.19,-0.68,-1.19,inactive,CROCCP3 (GeneID 114819),1
-0.34,-0.06,-0.48,-0.48,inactive,THA1P (GeneID 390816),1
-0.39,-0.53,-0.68,0.05,inactive,CCL2 (GeneID 6347),1
0.89,1.23,0.48,0.95,inactive,FAM133DP (GeneID 728066),1
0.17,0.14,0.28,0.11,inactive,ELMOD1 (GeneID 55531),1
-0.16,0.04,-0.29,-0.22,inactive,DLGAP1 (GeneID 9229),1
1.48,1.55,1.42,,inactive,DLGAP1 (GeneID 9229),2
-0.45,-0.52,-0.49,-0.35,inactive,DLGAP1 (GeneID 9229),3
0.21,0,0.68,-0.05,inactive,DNAAF19 (GeneID 388389),1
0.49,0.87,0.28,0.32,inactive,LINC00887 (GeneID 100131551),1
-0.14,-0.24,0.08,-0.27,inactive,COX7C (GeneID 1350),1
